According to PMC12678819, “Targeting bacterial kinases as a strategy to counteract antibiotic resistance” (2025):

Test system: Pseudomonas aeruginosa C0214
Assay: Bacterial growth / checkerboard assay with kanamycin A
Details: for growth curve reading: [10] 0 µM, panel C

NC[C@H]1O[C@H](O[C@H]2[C@H](O)[C@@H](O[C@H]3O[C@H](CO)[C@@H](O)[C@H](N)[C@H]3O)[C@H](N)C[C@@H]2N)[C@H](O)[C@@H](O)[C@@H]1O
OD600nm (KanaA 8 µg.mL-1 alone (inhibitor 0 µM)): 0.3090 and 0.2865 and 0.3001 | OD600nm (KanaA 16 µg.mL-1 alone (inhibitor 0 µM)): 0.3312 and 0.2857 and 0.2964 | OD600nm (KanaA 32 µg.mL-1 alone (inhibitor 0 µM)): 0.2577 and 0.2210 and 0.2829 | growth curve reading (Kanamycin A 8 µg·mL-1, 8 h): 0.2090 | growth curve reading (Kanamycin A 8 µg·mL-1, 9 h): 0.2342 | growth curve reading (Kanamycin A 8 µg·mL-1, 10 h): 0.2578 | growth curve reading (Kanamycin A 8 µg·mL-1, 11 h): 0.2718 | growth curve reading (Kanamycin A 8 µg·mL-1, 12 h): 0.2802 | growth curve reading (Kanamycin A 8 µg·mL-1, 13 h): 0.2813 | growth curve reading (Kanamycin A 8 µg·mL-1, 14 h): 0.2816 | growth curve reading (Kanamycin A 8 µg·mL-1, 15 h): 0.2802 | growth curve reading (Kanamycin A 8 µg·mL-1, 16 h): 0.2778 | growth curve reading (Kanamycin A 8 µg·mL-1, 17 h): 0.2779 | growth curve reading (Kanamycin A 8 µg·mL-1, 18 h): 0.2758 | growth curve reading (Kanamycin A 8 µg·mL-1, 19 h): 0.2748 | growth curve reading (Kanamycin A 8 µg·mL-1, 20 h): 0.2731 | growth curve reading (Kanamycin A 8 µg·mL-1, 21 h): 0.2707 | growth curve reading (Kanamycin A 8 µg·mL-1, 22 h): 0.2682 | growth curve reading (Kanamycin A 8 µg·mL-1, 23 h): 0.2658 | growth curve reading (Kanamycin A 8 µg·mL-1, 24 h): 0.2647 | growth curve reading (Kanamycin A 16 µg·mL-1, 8 h): 0.1243 | growth curve reading (Kanamycin A 16 µg·mL-1, 9 h): 0.1559 | growth curve reading (Kanamycin A 16 µg·mL-1, 10 h): 0.1962 | growth curve reading (Kanamycin A 16 µg·mL-1, 11 h): 0.2386 | growth curve reading (Kanamycin A 16 µg·mL-1, 12 h): 0.2679 | growth curve reading (Kanamycin A 16 µg·mL-1, 13 h): 0.2727 | growth curve reading (Kanamycin A 16 µg·mL-1, 14 h): 0.2740 | growth curve reading (Kanamycin A 16 µg·mL-1, 15 h): 0.2720 | growth curve reading (Kanamycin A 16 µg·mL-1, 16 h): 0.2701 | growth curve reading (Kanamycin A 16 µg·mL-1, 17 h): 0.2727 | growth curve reading (Kanamycin A 16 µg·mL-1, 18 h): 0.2750 | growth curve reading (Kanamycin A 16 µg·mL-1, 19 h): 0.2738 | growth curve reading (Kanamycin A 16 µg·mL-1, 20 h): 0.2690 | growth curve reading (Kanamycin A 16 µg·mL-1, 21 h): 0.2714 | growth curve reading (Kanamycin A 16 µg·mL-1, 22 h): 0.2692 | growth curve reading (Kanamycin A 16 µg·mL-1, 23 h): 0.2713 | growth curve reading (Kanamycin A 16 µg·mL-1, 24 h): 0.2771 | growth curve reading (Kanamycin A 32 µg·mL-1, 8 h): 0.0004 | growth curve reading (Kanamycin A 32 µg·mL-1, 9 h): 0.0008 | growth curve reading (Kanamycin A 32 µg·mL-1, 10 h): 0.0015 | growth curve reading (Kanamycin A 32 µg·mL-1, 11 h): 0.0032 | growth curve reading (Kanamycin A 32 µg·mL-1, 12 h): 0.0065 | growth curve reading (Kanamycin A 32 µg·mL-1, 13 h): 0.0133 | growth curve reading (Kanamycin A 32 µg·mL-1, 14 h): 0.0399 | growth curve reading (Kanamycin A 32 µg·mL-1, 15 h): 0.0809 | growth curve reading (Kanamycin A 32 µg·mL-1, 16 h): 0.1197 | growth curve reading (Kanamycin A 32 µg·mL-1, 17 h): 0.1579 | growth curve reading (Kanamycin A 32 µg·mL-1, 18 h): 0.2103 | growth curve reading (Kanamycin A 32 µg·mL-1, 19 h): 0.2611 | growth curve reading (Kanamycin A 32 µg·mL-1, 20 h): 0.2760 | growth curve reading (Kanamycin A 32 µg·mL-1, 21 h): 0.2862 | growth curve reading (Kanamycin A 32 µg·mL-1, 22 h): 0.2885 | growth curve reading (Kanamycin A 32 µg·mL-1, 23 h): 0.2826 | growth curve reading (Kanamycin A 32 µg·mL-1, 24 h): 0.2803 | growth curve reading (Kanamycin A 64 µg·mL-1, 8 h): 0.0000 | growth curve reading (Kanamycin A 64 µg·mL-1, 9 h): 0.0000 | growth curve reading (Kanamycin A 64 µg·mL-1, 10 h): 0.0000 | growth curve reading (Kanamycin A 64 µg·mL-1, 11 h): 0.0000 | growth curve reading (Kanamycin A 64 µg·mL-1, 12 h): 0.0000 | growth curve reading (Kanamycin A 64 µg·mL-1, 13 h): 0.0000 | growth curve reading (Kanamycin A 64 µg·mL-1, 14 h): 0.0000 | growth curve reading (Kanamycin A 64 µg·mL-1, 15 h): 0.0000 | growth curve reading (Kanamycin A 64 µg·mL-1, 16 h): 0.0008 | growth curve reading (Kanamycin A 64 µg·mL-1, 17 h): 0.0027 | growth curve reading (Kanamycin A 64 µg·mL-1, 18 h): 0.0137 | growth curve reading (Kanamycin A 64 µg·mL-1, 19 h): 0.0327 | growth curve reading (Kanamycin A 64 µg·mL-1, 20 h): 0.0564 | growth curve reading (Kanamycin A 64 µg·mL-1, 21 h): 0.0837 | growth curve reading (Kanamycin A 64 µg·mL-1, 22 h): 0.1155 | growth curve reading (Kanamycin A 64 µg·mL-1, 23 h): 0.1484 | growth curve reading (Kanamycin A 64 µg·mL-1, 24 h): 0.1825 | growth curve reading (Kanamycin A 128 µg·mL-1, 8 h): 0.0000 | growth curve reading (Kanamycin A 128 µg·mL-1, 9 h): 0.0000 | growth curve reading (Kanamycin A 128 µg·mL-1, 10 h): 0.0000 | growth curve reading (Kanamycin A 128 µg·mL-1, 11 h): 0.0000 | growth curve reading (Kanamycin A 128 µg·mL-1, 12 h): 0.0000 | growth curve reading (Kanamycin A 128 µg·mL-1, 13 h): 0.0000 | growth curve reading (Kanamycin A 128 µg·mL-1, 14 h): 0.0000 | growth curve reading (Kanamycin A 128 µg·mL-1, 15 h): 0.0000 | growth curve reading (Kanamycin A 128 µg·mL-1, 16 h): 0.0000 | growth curve reading (Kanamycin A 128 µg·mL-1, 17 h): 0.0000 | growth curve reading (Kanamycin A 128 µg·mL-1, 18 h): 0.0000 | growth curve reading (Kanamycin A 128 µg·mL-1, 19 h): 0.0000 | growth curve reading (Kanamycin A 128 µg·mL-1, 20 h): 0.0000 | growth curve reading (Kanamycin A 128 µg·mL-1, 21 h): 0.0000 | growth curve reading (Kanamycin A 128 µg·mL-1, 22 h): 0.0000 | growth curve reading (Kanamycin A 128 µg·mL-1, 23 h): 0.0000 | growth curve reading (Kanamycin A 128 µg·mL-1, 24 h): 0.0000 | MIC (P. aeruginosa C0214): 64 µg/mL

“And” between values parts separate entries of the source, which are not always exact repeats. Identical values can stand only once.
